A mixed list of measured activities; the numbers were collected in NIAID ChemDB.

Common to all: cytotoxicity tests; cell line: PBMC; measure: CC50

Lines come from different laboratories, so protocols vary.

SMILES | read by | value
CC(CN1CCc2ccccc2C1)NC(=O)Nc1ccc(Cl)c(Cl)c1 |  | 25 µM
FC(F)(F)Cc1nnc2c3ccccc3c(N3CCc4ccccc4C3)nn12 |  | >100 µM
O=C(NCCc1ccc2c(n1)NCCC2)Nc1c(Cl)cccc1C(F)(F)F |  | 50 µM
Cc1ccc2nc(Cl)c(/C=C/C(=O)c3sccc3Br)cc2c1 | MTS | 16.1 µM
COc1cc2c(cc1OC)CN(c1nn3c(C)nnc3c3ccccc13)CC2 |  | 1 µM
Cc1ccc2nc(Cl)c(/C=C/C(=O)c3ccc4c(c3)OCCO4)cc2c1 | MTS | 43.7 µM
COc1ccc2c(c1)CN(c1nn3c(C(C)C)nnc3c3ccccc13)CC2 |  | 23.4 µM
O=C(NCCc1cncc(-n2ccnc2)n1)NCc1ccc(Cl)c(Cl)c1 |  | 50 µM
Cc1ccc2nc(Cl)c(/C=C/C(=O)c3ccc(Br)s3)cc2c1 | MTS | 16.3 µM
Nc1nccc2c1ncn2[C@@H]1C=C(CO)[C@@H](O)[C@H]1O |  | 8.29 µM
Oc1ccc2c(c1)CN(c1nn3c(C4CC4)nnc3c3ccccc13)CC2 |  | 1.3 µM
O=C(NCCc1ccc2c(n1)NCCC2)Nc1ccccc1Br |  | 18.2 µM
Nc1nccc2c1ncn2[C@@H]1O[C@H](CO)[C@@H](O)[C@H]1O |  | 9.94 µM
CC(C)c1nnc2c3ccccc3c(N3CCc4ccc(NS(C)(=O)=O)cc4C3)nn12 |  | 2.64 µM
O=C(NCCc1ccccc1)NCCc1ccc2c(n1)NCCC2 |  | 50 µM
Cc1ccc2nc(Cl)c(/C=C/C(=O)c3ccc(Cl)s3)cc2c1 | MTS | 25.7 µM
Cn1ccc2cc(NC(=O)NCCc3ccc4c(n3)NCCC4)ccc21 |  | 0.65 µM
N#Cc1ccc2c(c1)CN(c1nn3c(C4CC4)nnc3c3ccccc13)CC2 |  | 4.79 µM

A second listing of 2 rows from above:

CC(CN1CCc2ccccc2C1)NC(=O)Nc1ccc(Cl)c(Cl)c1 ; value: 25 µM
FC(F)(F)Cc1nnc2c3ccccc3c(N3CCc4ccccc4C3)nn12 ; value: >100 µM

CCn is the concentration with n% toxicity to the cells. Blank or dashed fields: not listed here.